Data published in PMC7817669.

Molecular target: human ACE2 (angiotensin-converting enzyme 2) (human) (UniProt Q9BYF1)
Assay: BLI

Work on “sCoV-RBD (RBD of the SARS-CoV spike fused with a human IgG1 Fc fragment) (from UniProt P59594 306-527) (Fc fusion)” yielded a Kd of 1.11 nM, a koff of 0.000133 s⁻¹ and a kon of 120000 M⁻¹ s⁻¹.
